# Molecular target: Botulinum neurotoxin type A2 [1-425] (Clostridium botulinum, UniProt Q45894)
# Amino acid sequences for entries named in this document (tags omitted). Residues count along the entry.
# UniProt Q45894, 1-425: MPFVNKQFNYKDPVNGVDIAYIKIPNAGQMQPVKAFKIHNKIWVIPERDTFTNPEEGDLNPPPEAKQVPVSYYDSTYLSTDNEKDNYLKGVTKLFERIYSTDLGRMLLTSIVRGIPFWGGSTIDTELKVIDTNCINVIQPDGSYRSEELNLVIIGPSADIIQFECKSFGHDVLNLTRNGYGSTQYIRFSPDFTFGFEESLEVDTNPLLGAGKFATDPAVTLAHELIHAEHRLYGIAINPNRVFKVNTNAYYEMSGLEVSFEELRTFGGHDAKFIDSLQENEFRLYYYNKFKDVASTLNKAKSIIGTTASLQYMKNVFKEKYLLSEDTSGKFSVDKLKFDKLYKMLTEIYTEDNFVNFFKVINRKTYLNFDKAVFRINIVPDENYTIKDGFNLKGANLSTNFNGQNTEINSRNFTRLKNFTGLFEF
# Details: pH 7.3
row,SMILES,IC50 [µM]
1,CC(=O)O[C@@H]1CC[C@]2(C)C3C[C@H](OC(C)=O)[C@@]4(C)C(CC[C@@H]4[C@H](C)CCCNCCNc4ccnc5cc(Cl)ccc45)C3[C@H](OC(C)=O)C[C@@H]2C1 (stereo partly drawn),10
2,COC(=O)CC[C@@H](C)[C@H]1CCC2C3C(C[C@H](OC(C)=O)[C@@]21C)[C@@]1(C)CC[C@@H](NCCNc2ccnc4cc(Cl)ccc24)C[C@H]1C[C@H]3OC(C)=O (stereo partly drawn),7
3,COC(=O)CC[C@@H](C)[C@H]1CCC2C3C(C[C@H](OC(C)=O)[C@@]21C)[C@@]1(C)CC[C@H](NCCNc2ccnc4cc(Cl)ccc24)C[C@H]1C[C@H]3OC(C)=O (stereo partly drawn),17
